Results of unrelated studies side by side (data: NIAID ChemDB).

Percent inhibition refers to the dose given; in toxicity tests it is the harm to the cells. An empty or dashed field is not shown. ICn: concentration for n% inhibition. ECn: concentration that inhibits the pathogen or its effect by n%. Conditions beyond the fields shown may differ between rows.

| compound | cells | read-out | kind | target | agent | strain | tested at | value |
|---|---|---|---|---|---|---|---|---|
| Clc1ccc(C2COc3ccc(Cl)cc3C2)cc1 | HEP-2 | inhibition | culture |  | Poliovirus | II (TYPE 2) | 10 µM | 8% |
| CCCCCCCCCCCCCCCCCC(=O)OC[C@@H](COP(=O)(O)OCCNCCO[C@@]1(C(=O)O)O[C@@H]([C@H](O)[C@H](O)CO)[C@H](NC(C)=O)[C@@H](O)[C@H]1F)OC(=O)CCCCCCCCCCCCCCCCC |  | IC50 | target | Sialidase | Influenza A virus | H10N1 A/DUCK/33/3/76 |  | 250 µM |
| COC(=O)C(NC(=O)c1ccc2c(c1)nc(-c1ccccn1)n2C1CCCCC1)c1ccc(OC)c(OC)c1 |  | IC50 | target | RNA-dependent RNA polymerase | Poliovirus |  |  | >25 µM |
| O=c1[nH]cnc2c1ncn2[C@@H]1C=C(CO)[C@@H](O)[C@H]1O | MK2 | EC50 | culture |  | Variola virus | BSH |  | >100 µg/mL |
| Clc1ccc2c(c1)C=C(c1ccc(Br)cc1)CO2 | HEP-2 | EC50 | culture |  | Poliovirus | II (TYPE 2) |  | >10 µM |
| Nc1ccn(C[C@@H](CO)OCP(=O)(O)O)c(=O)n1 | VERO | EC50 | culture |  | Variola virus | Isolate ETH17 |  | 11 µg/mL |
| Brc1ccc(C2=Cc3cc(Br)ccc3OC2)cc1 | HEP-2 | inhibition | culture |  | Poliovirus | SABIN (TYPE 2) | 10 µM | 50% |
| Nc1ccc2[nH]cc(C[C@H](NC(=O)c3ccc4c(c3)nc(-c3ccoc3)n4C3CCCCC3)C(=O)O)c2c1 |  | IC50 | target | RNA-dependent RNA polymerase | Poliovirus |  |  | >25 µM |
| Clc1ccc(C2COc3ccccc3C2)cc1 | HEP-2 | inhibition | culture |  | Poliovirus | IA (TYPE 2) | 10 µM | 20% |
| Cn1c(O)c(N=NC(N)=S)c2ccccc21 | LLC-MK2 | EC50 | culture |  | Variola virus | Isolate Bangladesh |  | 41.2 µg/mL |
| O=C(N[C@H](Cc1c[nH]c2ccccc12)C(=O)O)c1ccc2c(c1)nc(-c1ccoc1)n2C1CCCCC1 |  | IC50 | target | RNA-dependent RNA polymerase | Poliovirus |  |  | >25 µM |
| Nc1ncnc2c1ncn2[C@@H]1C=C(CO)[C@@H](O)[C@H]1O | MK2 | EC50 | culture |  | Monkeypox virus | MPX |  | 0.26 µg/mL |
| CCCCCCCCCCCCCCCCCC(=O)OC[C@@H](COP(=O)(O)OCCNCCO[C@@]1(C(=O)O)O[C@@H]([C@H](O)[C@H](O)CO)[C@H](NC(C)=O)[C@@H](O)[C@H]1F)OC(=O)CCCCCCCCCCCCCCCCC |  | IC50 | target | Sialidase | Influenza A virus | H2N2 A/DUCK/HK/273/78 |  | 150 µM |
| CN(C)C(=O)c1ccc2c(c1)nc(-c1ccoc1)n2C1CCCCC1 |  | IC50 | target | RNA-dependent RNA polymerase | Poliovirus |  |  | >25 µM |
| Cn1cc(NC(=O)c2cc(NC(=O)CN=C(N)N)cn2C)c(C(=O)NCCC(=N)N)c1 | BSC-1 | inhibition | culture |  | Vaccinia virus | Noguchi | 200 µg/mL | 100% |
| CCCCCCCCCCCCC/C=C/[C@@H](O)[C@H](CO[C@@H]1O[C@H](CO)[C@H](O)[C@H](OS(=O)(=O)O)[C@H]1O)NC(=O)CCCCCCCCCCCCCCCCCCCCCCC |  | inhibition | target | Sialidase | Influenza A virus | H8N4 A/mallard/Alberta/7/87 | 200 µM | 71.8% |
| COc1ccc(C(NC(=O)c2ccc3c(c2)nc(-c2ccoc2)n3C2CCCC2)C(=O)O)cc1OC |  | IC50 | target | RNA-dependent RNA polymerase | Poliovirus |  |  | >25 µM |
| C1=C(c2ccccc2)COc2ccccc21 | HEP-2 | inhibition | culture |  | Poliovirus | TYPE 2 | 10 µM | 100% |
| Cn1cc(C[C@H](NC(=O)c2ccc3c(c2)nc(-c2ccoc2)n3C2CCCCC2)C(N)=O)c2cc(O)ccc21 |  | IC50 | target | RNA-dependent RNA polymerase | Poliovirus |  |  | >25 µM |
| Nc1ccn(C[C@H]2COP(=O)(O)CO2)c(=O)n1 | LLC-MK2 | EC50 | culture |  | Variola virus | Isolate Yamada |  | 6.1 µg/mL |
| O=C(NC(C(=O)O)C(=O)O)c1ccc2c(c1)nc(-c1ccccn1)n2C1CCCCC1 |  | IC50 | target | RNA-dependent RNA polymerase | Poliovirus |  |  | >25 µM |
| Cn1cc(NC(=O)c2cc(NC(=O)c3cc(NC(=O)c4cc(NC(=O)c5cc(NC=O)cn5C)cn4C)cn3C)cn2C)cc1C(=O)NCCC(=N)N | BSC-1 | inhibition | culture |  | Vaccinia virus | Noguchi | 75 µg/mL | 57% |

A second listing of 2 rows from above:

| compound | cells | read-out | kind | target | agent | strain | tested at | value |
|---|---|---|---|---|---|---|---|---|
| C1=C(c2ccccc2)COc2ccccc21 | HEP-2 | inhibition | culture |  | Poliovirus | TYPE 2 | 10 µM | 100% |
| Cn1cc(NC(=O)c2cc(NC(=O)c3cc(NC(=O)c4cc(NC(=O)c5cc(NC=O)cn5C)cn4C)cn3C)cn2C)cc1C(=O)NCCC(=N)N | BSC-1 | inhibition | culture |  | Vaccinia virus | Noguchi | 75 µg/mL | 57% |